Several values for one entry are separate records, joined by “and”; a condition that tells them apart may be missing. Identical values can stand only once.
Key:
[1] = tested on: Norwalk virus (replicon) GT1; test: Norwalk virus replicon (GT1) in HG23, RNA hybridization; type: cell-based, Norwalk virus (human norovirus); set-up: SI90: unit not given beside the values; conditions: for SI50 / SI90: NV GT1, Example 10
MNV MNV-1 = test: Murine norovirus (MNV-1) antiviral screen in RAW267.4; type: cell-based; set-up: SI90: unit not given beside the values; conditions: for SI90: Example 11; for SI50: Example 11, ratio CC50 / EC50
Dengue 2 = test: Dengue virus antiviral screen in HUH7; type: cell-based, dengue virus type 2; conditions: CC50/EC50
Zika virus MR766 = test: Zika virus antiviral screen in HuH-7; type: cell-based
HIV-1 strain LAI = test: HIV-1 replication reverse transcriptase (RT) assay in PBMC; type: cell-based, human immunodeficiency virus type 1; conditions: for SI50 (CC50/EC50): HIV-1LAI
[2] = tested on: Herpes simplex virus type 1 E-377; test: Herpes simplex virus type 1 antiviral screen in primary HFF-1 (CellTiter-Glo); type: cell-based; conditions: CC50/EC50
[3] = tested on: Vaccinia virus Copenhagen; type: cell-based; conditions: CC50/EC50; Primary HFF-1, CellTiter-Glo

CC#CC1(O)CCC2C3CCC4=CC(=NNC(=S)Nc5ccccc5)CCC4=C3C(c3ccc4c(c3)OCO4)CC21C.CC#CC1(O)CCC2C3CCC4=CC(=O)CCC4=C3C(c3ccc4c(c3)OCO4)CC21C.O (mixture of isomers) [PT156, 1/17(11β,17β)-17-Hydroxy-11-[3,4-(methylenedioxy)phenyl]-17-(1-propyn-1-yl)estra-4,9-dien-3-one (ORG34517)×(2EZ)-2-{(11β,17β)-17-hydroxy-11-[3,4-(methylenedioxy)phenyl]-17-(1-propyn-1-yl)estra-4,9-dien-3-ylidene}-N-phenylhydrazinecarbothioamide [74.1% (E), 25.9% (Z)] 11/17hydrate]
SI50 [1]: 1
SI90 [1]: 1
SI90 (MNV MNV-1): 114
SI50 (MNV MNV-1): 363

C[C@@]1(O)[C@H](O)[C@@H](CO)O[C@H]1n1ccc(N)nc1=O [2′-C-methylcytidine (RS-446), 2′-C-methylcytidine, reference compound]
SI50 [1]: >47
SI90 [1]: >16
SI50 (CC50/EC50) ([1]; Norwalk replicon, HG23, Table 10): >43
SI90 (MNV MNV-1): >10
SI50 (MNV MNV-1): >30

O=c1cnn([C@@H]2O[C@H](CO)[C@@H](O)[C@H]2O)c(=O)[nH]1 [6-azauridine, reference compound]
SI50 (Dengue 2; HuH-7, Neutral red): 4.6
SI50 (Dengue 2; HuH-7, Visual): >36
SI50 (Zika virus MR766; CC50/EC50, HuH-7, Neutral red): >9.1
SI50 (Zika virus MR766; CC50/EC50, HuH-7, Visual): >31
SI90 (Zika virus MR766; CC50/EC90, Zika, Example 9): >112
SI50 (Zika virus MR766; Neutral Red, Zika, Example 9, ratio CC50 / EC50): >24
SI50 (CC50/EC50) (Zika virus MR766; Zika, HuH-7, Table 10): >31

Cc1cn([C@H]2C[C@H](N=[N+]=[N-])[C@@H](CO)O2)c(=O)[nH]c1=O [AZT, 3′-azido-3′-deoxythymidine, reference compound]
SI50 (HIV-1 strain LAI; CC50/EC50): >126582
SI50 (CC50/EC50) (HIV-1 strain LAI): >22,696 and >22.696
SI50 (CC50/EC50) (HIV-1 strain LAI; listed as zidovudine (AZT)): >22,696 (n = 20)

Nc1nc2c(ncn2COCCO)c(=O)[nH]1 [Aciclovir]
SI50 [2]: >39

Nc1ccn(C[C@@H](CO)OCP(=O)(O)O)c(=O)n1 [Cidofovir]
SI50 [3]: >20

From US9598459B2, “Pharmaceutical compositions and methods” (priority 2015, dated 2017)
